PubChem BioAssay AID624099 | ICCB-Longwood – 2012
The whole screen tested about 21,000 reagents; shown is an unselected part. In the full data, 497 (2.4%) were called active. 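Higher z means weaker E2 silencing; only reporter increases were scored, and knock-downs that hurt cell survival may mask genuine repressor factors.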 A number with no mark means an inactive call. The numbers tell different reagents against one gene apart.

- Purpose: 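Host factors E2 relies on to silence an HPV18 LCR reporter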 (primary screen)
- System: human C33A cervical carcinoma cells (HPV-negative) stably expressing BPV1 E2 and an HPV18 LCR luciferase reporter
- Reagent: siRNA pool against human genes, 40 nM
- Duration: 72 h
- Read-out: 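Per-well luciferase luminescence, z-scored on each plate against the plate mean and SD with control wells left out, then averaged across three replicate plates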
- Direction: mean z-score and z-score: higher = stronger reporter signal, weaker E2 silencing
- Active means: 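Hit if mean z-score reaches 2 and two or more of three replicate z-scores also reach 2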

gene | reagent | mean z-score | z-score, replicate A | z-score, replicate B | z-score, replicate C
DOCK8 (dedicator of cytokinesis 8) | 1 | -1.81 | -1.87 | -2.06 | -1.49
CEP68 (centrosomal protein 68) | 1 | 0.25 | 0.2 | 0.16 | 0.38
PRF1 (perforin 1) | 1 | 1.61 | 1.38 | 1.4 | 2.05
OR5T2 (olfactory receptor family 5 subfamily T member 2) | 1 | 1.16 | 1.28 | 1.01 | 1.18
RDUR (RIG-I dependent antiviral response regulator RNA) | 1 | 0.28 | 0.3 | 0.09 | 0.44
CEMIP (cell migration inducing hyaluronidase 1) | 1 | -0.21 | -0.35 | -0.06 | -0.23
OGFOD3 | 1 | 1.08 | 1.14 | 0.95 | 1.15
EMD (emerin) | 1 | -0.06 | -0.2 | -0.04 | 0.06
SLC35G1 | 1 | -0.52 | -0.64 | -0.5 | -0.43
ELOF1 (elongation factor 1) | 1 | -1.15 | -1.03 | -1.06 | -1.36
LCA5L (lebercilin LCA5 like) | 1 | 0.97 | 1.01 | 0.74 | 1.17
SMYD2 (SET and MYND domain containing 2) | 1 | 0.42 | 0.1 | 0.51 | 0.65
CTHRC1 (collagen triple helix repeat containing 1) | 1 | 1.04 | 1.1 | 1.03 | 1
SRPRA (SRP receptor subunit alpha) | 1 | 0.45 | 0.43 | 0.66 | 0.27
BAG4 (BAG cochaperone 4) | 1 | 0.63 | 0.6 | 0.69 | 0.6
DMAC1 (distal membrane arm assembly component 1) | 1 | -1.13 | -1.06 | -0.99 | -1.32
SHISA6 (shisa family member 6) | 1 | 0.28 | 0.38 | 0.47 | 0
SHISA6 (shisa family member 6) | 2 | 0.35 | 0.18 | 0.93 | -0.06
PYM1 (PYM1 exon junction complex associated factor) | 1 | -1.61 | -1.68 | -1.64 | -1.52
NSMCE2 (NSE2 SUMO ligase component of SMC5/6 complex) | 1 | 1.52 | 0.87 | 1.34 | 2.35
MYBBP1A (MYB binding protein 1a) | 1 | 0.77 | 0.71 | 0.74 | 0.86
HOXA10 (homeobox A10) | 1 | -1.01 | -1.35 | -0.92 | -0.77
NCR1 (natural cytotoxicity triggering receptor 1) | 1 | -0.14 | 0.08 | -0.27 | -0.22
PPARG (peroxisome proliferator activated receptor gamma) | 1 | 0.94 | 1.06 | 0.83 | 0.94

Records listed so far whose gene name begins with S or s (5):
gene | reagent | mean z-score | z-score, replicate A | z-score, replicate B | z-score, replicate C
SLC35G1 | 1 | -0.52 | -0.64 | -0.5 | -0.43
SMYD2 (SET and MYND domain containing 2) | 1 | 0.42 | 0.1 | 0.51 | 0.65
SRPRA (SRP receptor subunit alpha) | 1 | 0.45 | 0.43 | 0.66 | 0.27
SHISA6 (shisa family member 6) | 1 | 0.28 | 0.38 | 0.47 | 0
SHISA6 (shisa family member 6) | 2 | 0.35 | 0.18 | 0.93 | -0.06

The listing continues:
gene | reagent | mean z-score | z-score, replicate A | z-score, replicate B | z-score, replicate C
RSPO3 (R-spondin 3) | 1 | -0.41 | -0.29 | -0.58 | -0.37
WDFY4 (WDFY family member 4) | 1 | 0.48 | 0.07 | 0.89 | 0.49
LMNTD1 (lamin tail domain containing 1) | 1 | -1.95 | -1.68 | -2.02 | -2.13
OGA (O-GlcNAcase) | 1 | -0.66 | -1.08 | -0.46 | -0.45
S1PR4 (sphingosine-1-phosphate receptor 4) | 1 | 0.61 | 0.9 | 0.71 | 0.23
ANKRD1 (ankyrin repeat domain 1) | 1 | -0.31 | -0.68 | -0.19 | -0.05
RPL38 (ribosomal protein L38) | 1 | -2.2 | -2.16 | -2.25 | -2.2
RAPSN (receptor associated protein of the synapse) | 1 | 0.45 | 0.36 | 0.69 | 0.31
FHIT (fragile histidine triad diadenosine triphosphatase) | 1 | -1.11 | -1.07 | -1.16 | -1.1
PAQR7 (progestin and adipoQ receptor family member 7) | 1 | -0.16 | -0.1 | -0.29 | -0.08
ZFP42 (ZFP42 zinc finger protein) | 1 | 0.28 | 0.31 | 0.16 | 0.37
NTNG1 (netrin G1) | 1 | -1.23 | -1.3 | -1.34 | -1.07
ALG8 (ALG8 alpha-1,3-glucosyltransferase) | 1 | -0.32 | -0.24 | -0.74 | 0.01
IBTK (inhibitor of Bruton tyrosine kinase) | 1 | -0.93 | -1.07 | -0.71 | -1.02
DEFB129 (defensin beta 129) | 1 | -0.7 | -1.31 | -0.59 | -0.19
